Laboratory results: patent US6355627B1, “Branched cyclodextrin clathrate compound of hinokitiols and composition containing the same” (Takasago International Corporation, priority 1999, dated 2002)
“And” between values parts separate entries of the source, which are not always exact repeats. Equal entries are not always repeated.

Assay: Evaluation of corrosion of stainless test piece in aqueous solution
Settings: 0.1% aqueous solution (1.0% for the clathrate), stirred

## CC(C)c1cccc(=O)c(O)c1 [Hinokitiol]
90° C.
  Corrosion rate at 90° C., Sus 304: 3.27 mm/year and 3.27 mm mm/year
Room temperature (25° C.)
  Corrosion rate at 25° C., Sus 304: 0.67 mm/year and 0.67 mm mm/year
